{"source": "PubChem BioAssay AID624099 (ICCB-Longwood, 2012)", "test": "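Knock-downs relieving repression by E2 of an HPV18 LCR luciferase reporter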 (primary screen)", "cells": "human C33A cervical carcinoma cells (HPV-negative) stably expressing BPV1 E2 and an HPV18 LCR luciferase reporter", "reagent": "siRNA pool against human genes, 40 nM", "time to read-out": "72 h", "measured": "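HPV18 LCR reporter light per well, converted to plate-wise z-scores that exclude control wells, and averaged over triplicate plates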", "direction": "mean z-score and z-score: higher = stronger reporter signal, weaker E2 silencing", "call rule": "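Mean z ≥ 2 together with z ≥ 2 in two or more of the three replicates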", "note": "In all, the deposit lists about 21,000 reagents; shown is an unselected part. In the full data, 497 (2.4%) are marked active. 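Higher z means weaker E2 silencing; only reporter increases were scored, and knock-downs that hurt cell survival may mask genuine repressor factors.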 Reagent sequences are not shown."}
{"Gene": "MGST3 (microsomal glutathione S-transferase 3)", "mean z-score": -0.9, "z-score, replicate A": -0.94, "z-score, replicate B": -0.81, "z-score, replicate C": -0.95, "call": "inactive"}
{"Gene": "TSPAN13 (tetraspanin 13)", "mean z-score": 0.35, "z-score, replicate A": -0.02, "z-score, replicate B": 0.41, "z-score, replicate C": 0.67, "call": "inactive"}
{"Gene": "REEP4 (receptor accessory protein 4)", "mean z-score": 0.81, "z-score, replicate A": 0.4, "z-score, replicate B": 1.15, "z-score, replicate C": 0.87, "call": "inactive"}
{"Gene": "LRRC37B (leucine rich repeat containing 37B)", "mean z-score": 2.41, "z-score, replicate A": 2.23, "z-score, replicate B": 2.44, "z-score, replicate C": 2.57, "call": "active"}
{"Gene": "CACYBP (calcyclin binding protein)", "mean z-score": -0.08, "z-score, replicate A": 0.22, "z-score, replicate B": -0.02, "z-score, replicate C": -0.45, "call": "inactive"}
{"Gene": "PLPP3 (phospholipid phosphatase 3)", "mean z-score": 1.47, "z-score, replicate A": 1.66, "z-score, replicate B": 1.31, "z-score, replicate C": 1.44, "call": "inactive"}
{"Gene": "SEMA3F (semaphorin 3F)", "mean z-score": 0.34, "z-score, replicate A": 0.26, "z-score, replicate B": 0.74, "z-score, replicate C": 0.03, "call": "inactive"}
{"Gene": "FAABTP (fatty acid amide binding transmembrane protein)", "mean z-score": -1.97, "z-score, replicate A": -1.99, "z-score, replicate B": -1.99, "z-score, replicate C": -1.92, "call": "inactive"}
{"Gene": "CARD18 (caspase recruitment domain family member 18)", "mean z-score": -0.98, "z-score, replicate A": -1.22, "z-score, replicate B": -1.4, "z-score, replicate C": -0.33, "call": "inactive"}
{"Gene": "CSH2 (chorionic somatomammotropin hormone 2)", "mean z-score": -1.23, "z-score, replicate A": -0.95, "z-score, replicate B": -1.72, "z-score, replicate C": -1.03, "call": "inactive"}
{"Gene": "PFKL (phosphofructokinase, liver type)", "mean z-score": 1.01, "z-score, replicate A": 0.56, "z-score, replicate B": 1.41, "z-score, replicate C": 1.06, "call": "inactive"}
{"Gene": "TMEM256 (transmembrane protein 256)", "mean z-score": -1.54, "z-score, replicate A": -1.47, "z-score, replicate B": -1.7, "z-score, replicate C": -1.44, "call": "inactive"}
{"Gene": "PLXDC2 (plexin domain containing 2)", "mean z-score": -0.24, "z-score, replicate A": -0.39, "z-score, replicate B": -0.25, "z-score, replicate C": -0.08, "call": "inactive"}
{"Gene": "MFSD12 (major facilitator superfamily domain containing 12)", "mean z-score": -0.62, "z-score, replicate A": -0.46, "z-score, replicate B": -0.7, "z-score, replicate C": -0.71, "call": "inactive"}
{"Gene": "SIM2 (SIM bHLH transcription factor 2)", "mean z-score": 1.66, "z-score, replicate A": 1.71, "z-score, replicate B": 1.73, "z-score, replicate C": 1.53, "call": "inactive"}
{"Gene": "SDR9C7 (short chain dehydrogenase/reductase family 9C member 7)", "mean z-score": -0.41, "z-score, replicate A": -0.28, "z-score, replicate B": -0.52, "z-score, replicate C": -0.43, "call": "inactive"}
{"Gene": "MYL1 (myosin light chain 1)", "mean z-score": 0.23, "z-score, replicate A": 0.21, "z-score, replicate B": 0.32, "z-score, replicate C": 0.17, "call": "inactive"}
{"Gene": "PTCD2 (pentatricopeptide repeat domain 2)", "mean z-score": -2.08, "z-score, replicate A": -2.17, "z-score, replicate B": -2.25, "z-score, replicate C": -1.8, "call": "inactive"}
{"Gene": "ECHS1 (enoyl-CoA hydratase, short chain 1)", "mean z-score": 0.45, "z-score, replicate A": 0.46, "z-score, replicate B": 0.41, "z-score, replicate C": 0.48, "call": "inactive"}
{"Gene": "SLC31A2", "mean z-score": -0.38, "z-score, replicate A": -0.33, "z-score, replicate B": -0.49, "z-score, replicate C": -0.31, "call": "inactive"}
{"Gene": "SELENOW (selenoprotein W)", "mean z-score": 0.91, "z-score, replicate A": 0.6, "z-score, replicate B": 1.03, "z-score, replicate C": 1.11, "call": "inactive"}
